A mixed list of measured activities; the numbers were collected in NIAID ChemDB.

All rows: growth or infection tests; agent: Herpes simplex virus 1; cell line: VERO; endpoint: EC50

ECn: concentration that inhibits the pathogen or its effect by n%. Conditions beyond the fields shown may differ between rows. Blank or dashed fields: not listed here.

SMILES	strain or isolate	read by	result
C[C@H]1O[C@@H](O[C@H]2CC[C@@]3(C)[C@H](CC[C@@H]4[C@@H]3C[C@@H](O)[C@]3(C)[C@@H](C5=CC(=O)OC5)CC[C@]43O)C2)C[C@H](O)[C@@H]1O[C@H]1C[C@H](O)[C@H](O[C@H]2C[C@H](O)[C@H](O[C@@H]3C[C@H](CO)[C@@H](O)[C@H](O)[C@H]3O)[C@@H](C)O2)[C@@H](C)O1	KOS	plaque count	0.94 µM
N#Cc1c(NC(=O)Nc2ccccc2)nc2[nH]c(=O)[nH]c(=O)c2c1-c1ccc(Cl)cc1	-	plaque count	18 µg/mL
CO[C@H]1C[C@H](O[C@H]2[C@@H](O)C[C@H](O[C@H]3[C@@H](O)C[C@H](O[C@H]4CC[C@@]5(C)[C@H](CC[C@@H]6[C@@H]5CC[C@]5(C)[C@@H](C7=CC(=O)OC7)CC[C@]65O)C4)O[C@@H]3C)O[C@@H]2C)O[C@H](C)[C@H]1O	KOS	plaque count	0.12 µM
N#Cc1c(NC(=S)Nc2ccccc2)nc2[nH]c(=O)[nH]c(=O)c2c1-c1ccc(Br)cc1	-	plaque count	14 µg/mL
O=C(O)CP(=O)(O)O	TK-	cytopathic effect	>71.4 µM
CC(C)(O)CCc1c(-c2ccc(O)cc2O)oc2c3c(cc(O)c2c1=O)OC(C)(C)C=C3	15577	cytopathic effect	>100 µg/mL
COC(=O)[C@H](C)NP(=O)(OC[C@H]1C/C1=C/n1cnc2c(N)nc(N)nc21)Oc1ccccc1	-	plaque count	30 µM
CO[C@H]1C[C@H](O[C@H]2CC[C@]3(C=O)[C@H]4CC[C@]5(C)[C@@H](C6=CC(=O)OC6)CC[C@]5(O)[C@H]4CC[C@]3(O)C2)O[C@H](C)[C@H]1O	KOS	plaque count	0.14 µM
COc1ccc(-c2c3c(N)n(-c4ccccc4)c(=S)nc3nc3[nH]c(=O)[nH]c(=O)c23)cc1OC	-	plaque count	16 µg/mL
O=C(O)P(=O)(O)O	BRAND	cytopathic effect	>238 µM
CC1(C)Oc2cc3oc(-c4cc(O)cc(OC5OC[C@@H](O)[C@H](O)[C@H]5O)c4)cc3cc2CC1O	15577	cytopathic effect	75.4 µg/mL
C[C@H]1OC(O[C@H]2[C@@H](O)C[C@H](O[C@@]3(C)[C@@H](O)C[C@H](O[C@H]4CC[C@@]5(C)[C@H](CC[C@@H]6[C@@H]5C[C@@H](O)[C@]5(C)[C@@H](C7=CC(=O)OC7)CC[C@]65O)C4)O[C@@H]3C)O[C@@H]2C)C[C@H](O)[C@@H]1O	KOS	plaque count	0.66 µM
O=C(CP(=O)(O)O)OC[C@H]1O[C@@H](n2cc(CCCl)c(=O)[nH]c2=O)C[C@@H]1O	TK-	cytopathic effect	>72.7 µM
N#Cc1c(-c2ccc(Br)cc2)c2c(=O)[nH]c(=O)[nH]c2[nH]c1=O	-	plaque count	40 µg/mL
CC(C)=CCC/C(C)=C/CC/C(C)=C/Cc1c(O)cc(O)c2c(=O)cc(-c3ccc(O)cc3O)oc12	15577	cytopathic effect	>100 µg/mL
COC(=O)[C@H](C)NP(=O)(OC[C@H]1C/C1=C\n1cnc2c(=O)[nH]c(N)nc21)Oc1ccccc1	-	plaque count	>100 µM
C[C@H]1O[C@@H](O[C@H]2[C@@H](O)C[C@H](O[C@H]3CC[C@@]4(C)[C@H](CC[C@@H]5[C@@H]4C[C@@H](O)[C@]4(C)[C@@H](C6=CC(=O)OC6)CC[C@]54O)C3)O[C@@H]2C)C[C@H](O)[C@@H]1O	KOS	plaque count	0.27 µM
CC(C)=CCC/C(C)=C/Cc1cc(-c2cc(=O)c3c(O)cc(O)cc3o2)ccc1O	15577	cytopathic effect	>100 µg/mL
C[C@@]1(CO)[C@H](O)CC[C@@]2(C)[C@H]1CC[C@H]1C[C@@H]3C[C@@]12CC[C@]3(O)CO	-	plaque count	2.1 µg/mL
CC(=O)O[C@H]1C[C@H](O[C@H]2[C@@H](O)C[C@H](O[C@H]3[C@@H](O)C[C@H](O[C@H]4CC[C@@]5(C)[C@H](CC[C@@H]6[C@@H]5CC[C@]5(C)[C@@H](C7=CC(=O)OC7)CC[C@]65O)C4)O[C@@H]3C)O[C@@H]2C)OC(C)[C@H]1O[C@@H]1O[C@H](CO)[C@@H](O)[C@H](O)[C@H]1O	KOS	plaque count	0.54 µM
COc1nc(N)nc2c1ncn2C=C1CC1CO	-	plaque count	>50 µM
Nc1nc2ncn(COCCCl)c2c(=O)[nH]1	KOS	cytopathic effect	>128 µg/mL
C[C@H]1O[C@@H](O[C@H]2[C@@H](O)C[C@H](O[C@H]3CC[C@@]4(C)[C@H](CC[C@@H]5[C@@H]4CC[C@]4(C)[C@@H](C6=CC(=O)OC6)CC[C@]54O)C3)O[C@@H]2C)C[C@H](O)[C@@H]1O	29R	plaque count	0.1 µM
O=C(O)CP(=O)(O)OC[C@H]1O[C@@H](n2cc(CCCl)c(=O)[nH]c2=O)C[C@@H]1O	TK-	cytopathic effect	>23.2 µM
Nc1c2c(-c3ccc(Br)cc3)c3c(=O)[nH]c(=O)[nH]c3nc2nc(=S)n1-c1ccccc1	-	plaque count	10 µg/mL
Nc1nc2c(ncn2COCCO)c(=O)[nH]1	TK-	cytopathic effect	>44 µM
CC(=O)O[C@H]1[C@@H](O)C[C@H](O[C@H]2[C@@H](O)C[C@H](O[C@H]3[C@@H](O)C[C@H](O[C@H]4CC[C@@]5(C)[C@H](CC[C@@H]6[C@@H]5CC[C@]5(C)[C@@H](C7=CC(=O)OC7)CC[C@]65O)C4)O[C@@H]3C)O[C@@H]2C)O[C@@H]1C	KOS	plaque count	0.36 µM

The last 3 rows once more:

| SMILES | strain or isolate | read by | result |
|---|---|---|---|
| Nc1c2c(-c3ccc(Br)cc3)c3c(=O)[nH]c(=O)[nH]c3nc2nc(=S)n1-c1ccccc1 | - | plaque count | 10 µg/mL |
| Nc1nc2c(ncn2COCCO)c(=O)[nH]1 | TK- | cytopathic effect | >44 µM |
| CC(=O)O[C@H]1[C@@H](O)C[C@H](O[C@H]2[C@@H](O)C[C@H](O[C@H]3[C@@H](O)C[C@H](O[C@H]4CC[C@@]5(C)[C@H](CC[C@@H]6[C@@H]5CC[C@]5(C)[C@@H](C7=CC(=O)OC7)CC[C@]65O)C4)O[C@@H]3C)O[C@@H]2C)O[C@@H]1C | KOS | plaque count | 0.36 µM |